Data as given in patent US20200306295A1, “METHOD AND DEVICE FOR ANNIHILATION OF Staphylococcus aureus” (priority 2017, published 2020).

Tested on: MRSA
Format: cell-based, S. aureus
Details: 48-day serial passage, sub-MIC antibiotic with 10 min laser
Protocol: To understand whether laser treatment could cause genotypic or phenotypic change in MRSA, and whether STX photolysis could reduce the resistance development for conventional antibiotics, a serial passage study for each treatment scenario was conducted. The initial generation (Day 1) used in this study was stationary-phase MRSA. The sample was prepared, washed and resuspended in 1×PBS at its original concentration. An aliquot (5 μl) of the MRSA suspension was transferred onto a glass cover slide as a droplet of ˜5 mm in diameter with or without 10 min laser treatment (1 cm diameter illumination area, 120 mW). The droplets were then collected and resuspended into 5 ml of TSB medium (1:1000 dilution) with an estimated cell concentration of 10^5 CFU/ml. To study resistance development or selection induced by laser treatment alone, three groups were included: a group without laser treatment (SPO), a group with laser treatment (SPL1), and another independent group with laser treatment as a duplicate (SPL2). […] These well plates were incubated in a shaker at 37° C. and 200 rpm for 18 hours followed by OD600 measurement by a plate reader. […] An aliquot (1 μl) was transferred and then sandwiched between two glass cover slides for STX quantification by resonance Raman spectroscopy.

Compound: Cc1onc(-c2ccccc2)c1C(=O)N[C@@H]1C(=O)N2[C@@H]1SC(C)(C)[C@@H]2C(=O)O [Oxacillin, oxacillin]
- resistance development with laser treatment: Delayed resistance development
